Values from PubChem BioAssay AID624099 (ICCB-Longwood, 2012).

- Purpose: 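Human genes that papillomavirus E2 requires to repress the HPV18 LCR promoter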 (primary screen)
- System: human C33A cervical carcinoma cells (HPV-negative) stably expressing BPV1 E2 and an HPV18 LCR luciferase reporter
- Reagent: siRNA pool against human genes, 40 nM
- Time to read-out: 72 h
- Measurement: 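Per-well luciferase luminescence, z-scored on each plate against the plate mean and SD with control wells left out, then averaged across three replicate plates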
- Scale: mean z-score and z-score: higher = stronger reporter signal, weaker E2 silencing
- Rule for the call: 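Mean z ≥ 2 together with z ≥ 2 in two or more of the three replicates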
Shown is a random part of about 21,000 reagents. 497 of them (2.4%) count as active. 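Higher z means weaker E2 silencing; only reporter increases were scored, and knock-downs that hurt cell survival may mask genuine repressor factors.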

no.	Target gene	mean z-score	z-score, replicate A	z-score, replicate B	z-score, replicate C	outcome
1	ZNF512B (zinc finger protein 512B)	-1.12	-1.01	-1.14	-1.21	inactive
2	TMEM257 (retired record)	0.45	0.43	0.46	0.47	inactive
3	CAB39L (calcium binding protein 39 like)	-0.61	-0.37	-0.92	-0.53	inactive
4	ST8SIA6 (ST8 alpha-N-acetyl-neuraminide alpha-2,8-sialyltransferase 6)	0.29	0.1	0.35	0.4	inactive
5	ELAVL1 (ELAV like RNA binding protein 1)	-0.6	-0.18	-0.92	-0.7	inactive
6	RBM46 (RNA binding motif protein 46)	0.92	1.28	0.81	0.69	inactive
7	MT-CO1 (mitochondrially encoded cytochrome c oxidase I)	1.05	0.9	1.08	1.17	inactive
8	TPCN1 (two pore segment channel 1)	1.67	1.77	1.5	1.75	inactive
9	SLC71A3P	-0.25	-0.38	-0.23	-0.13	inactive
10	LRP4 (LDL receptor related protein 4)	0.05	-0.01	0.16	0.02	inactive
11	HCLS1 (hematopoietic cell-specific Lyn substrate 1)	-0.29	-0.31	-0.35	-0.2	inactive
12	DEFB4A (defensin beta 4A)	0.86	0.95	0.79	0.84	inactive
13	TTC1 (tetratricopeptide repeat domain 1)	-0.42	-0.42	-0.34	-0.5	inactive
14	MFF (mitochondrial fission factor)	-0.14	1.08	-0.73	-0.76	inactive
15	AXIN2 (axin 2)	0	-0.34	0.27	0.09	inactive
16	CST2 (cystatin SA)	-0.58	-0.58	-0.7	-0.48	inactive
17	NAA30 (N-alpha-acetyltransferase 30, NatC catalytic subunit)	-0.42	-0.67	-0.29	-0.29	inactive
18	FLJ46126 (retired record)	-1.09	-0.92	-1.23	-1.12	inactive
19	LYPD6 (LY6/PLAUR domain containing 6)	0.96	0.95	1.08	0.87	inactive
20	HTR3D (5-hydroxytryptamine receptor 3D)	0.07	-0.11	0.44	-0.12	inactive
21	PAX7 (paired box 7)	3.13	3.26	2.96	3.17	active

Already shown: an excerpt of the list.
no.	Target gene	mean z-score	z-score, replicate A	z-score, replicate B	z-score, replicate C	outcome
19	LYPD6 (LY6/PLAUR domain containing 6)	0.96	0.95	1.08	0.87	inactive
20	HTR3D (5-hydroxytryptamine receptor 3D)	0.07	-0.11	0.44	-0.12	inactive
21	PAX7 (paired box 7)	3.13	3.26	2.96	3.17	active

The list goes on:
no.	Target gene	mean z-score	z-score, replicate A	z-score, replicate B	z-score, replicate C	outcome
22	ALDH6A1 (aldehyde dehydrogenase 6 family member A1)	0.42	0.07	0.79	0.38	inactive
23	AGTRAP (angiotensin II receptor associated protein)	3.71	3.53	3.94	3.66	active
24	DGCR6 (DiGeorge syndrome critical region gene 6)	-1.4	-1.39	-1.35	-1.46	inactive
25	OR4F15 (olfactory receptor family 4 subfamily F member 15)	-1.16	-0.68	-1.23	-1.55	inactive
26	MAPKAPK5-AS1 (MAPKAPK5 antisense RNA 1)	0.28	0.02	0.35	0.47	inactive
27	ZSCAN4 (zinc finger and SCAN domain containing 4)	-0.15	-0.24	-0.2	-0.02	inactive
28	ZNF696 (zinc finger protein 696)	-2.24	-2.08	-2.46	-2.17	inactive
29	NOP58 (NOP58 ribonucleoprotein)	-0.7	-0.76	-0.7	-0.65	inactive
30	CGRRF1 (cell growth regulator with ring finger domain 1)	0.82	0.58	0.72	1.15	inactive
31	LGR4 (leucine rich repeat containing G protein-coupled receptor 4)	0.64	0.36	0.67	0.89	inactive
32	DNA2 (DNA replication helicase/nuclease 2)	-1.22	-1.41	-1.1	-1.15	inactive
33	FCGRT (Fc gamma receptor and transporter)	-0.41	-0.33	-0.52	-0.38	inactive
34	SPTLC2 (serine palmitoyltransferase long chain base subunit 2)	-0.01	0.09	-0.22	0.11	inactive
35	GUCA1C (guanylate cyclase activator 1C)	0.11	-0.03	0.09	0.29	inactive
36	MGC70870 (C-terminal binding protein 2 pseudogene)	-0.04	-0.02	-0.08	0	inactive
37	ARID4B (AT-rich interaction domain 4B)	-1.31	-1.59	-1.34	-1	inactive
38	S100A4 (S100 calcium binding protein A4)	1.14	1.27	1.08	1.08	inactive
39	ZNF410 (zinc finger protein 410)	-1.2	-0.86	-1.12	-1.62	inactive
